Measurements as given in patent publication EP0408973B1 (BIO-MEGA/BOEHRINGER INGELHEIM RESEARCH INC., priority 1989, dated 1991).

Assay: general procedure: Boc solid-phase peptide synthesis; BHA-photoresin, [4-(2-chloropropionyl)phenoxy]acetamidomethyl-copoly(styrene-1% divinylbenzene) resin; BOP/HOBt
Details: late stage modification step, analytical HPLC

| Substance | final HPLC purity [% pure] |
| --- | --- |
| PEPTIDE1{[PhPrCO].[NMeVal].I.N.D.[LeuTet]}$$$$V2.0 | 90 |
| PEPTIDE1{[PhPrCO].[NMeVal].I.[TetAla].D.L}$$$$V2.0 | 100 |

Strings that start with PEPTIDE1 are HELM notation: dots part the residues, brackets hold end groups and non-standard residues.
